The record followed here is publication PMC6488583.

Amino acid sequences for entries named in this document (tags omitted). Residues count along the entry.
UniProt P02751, 32-2477: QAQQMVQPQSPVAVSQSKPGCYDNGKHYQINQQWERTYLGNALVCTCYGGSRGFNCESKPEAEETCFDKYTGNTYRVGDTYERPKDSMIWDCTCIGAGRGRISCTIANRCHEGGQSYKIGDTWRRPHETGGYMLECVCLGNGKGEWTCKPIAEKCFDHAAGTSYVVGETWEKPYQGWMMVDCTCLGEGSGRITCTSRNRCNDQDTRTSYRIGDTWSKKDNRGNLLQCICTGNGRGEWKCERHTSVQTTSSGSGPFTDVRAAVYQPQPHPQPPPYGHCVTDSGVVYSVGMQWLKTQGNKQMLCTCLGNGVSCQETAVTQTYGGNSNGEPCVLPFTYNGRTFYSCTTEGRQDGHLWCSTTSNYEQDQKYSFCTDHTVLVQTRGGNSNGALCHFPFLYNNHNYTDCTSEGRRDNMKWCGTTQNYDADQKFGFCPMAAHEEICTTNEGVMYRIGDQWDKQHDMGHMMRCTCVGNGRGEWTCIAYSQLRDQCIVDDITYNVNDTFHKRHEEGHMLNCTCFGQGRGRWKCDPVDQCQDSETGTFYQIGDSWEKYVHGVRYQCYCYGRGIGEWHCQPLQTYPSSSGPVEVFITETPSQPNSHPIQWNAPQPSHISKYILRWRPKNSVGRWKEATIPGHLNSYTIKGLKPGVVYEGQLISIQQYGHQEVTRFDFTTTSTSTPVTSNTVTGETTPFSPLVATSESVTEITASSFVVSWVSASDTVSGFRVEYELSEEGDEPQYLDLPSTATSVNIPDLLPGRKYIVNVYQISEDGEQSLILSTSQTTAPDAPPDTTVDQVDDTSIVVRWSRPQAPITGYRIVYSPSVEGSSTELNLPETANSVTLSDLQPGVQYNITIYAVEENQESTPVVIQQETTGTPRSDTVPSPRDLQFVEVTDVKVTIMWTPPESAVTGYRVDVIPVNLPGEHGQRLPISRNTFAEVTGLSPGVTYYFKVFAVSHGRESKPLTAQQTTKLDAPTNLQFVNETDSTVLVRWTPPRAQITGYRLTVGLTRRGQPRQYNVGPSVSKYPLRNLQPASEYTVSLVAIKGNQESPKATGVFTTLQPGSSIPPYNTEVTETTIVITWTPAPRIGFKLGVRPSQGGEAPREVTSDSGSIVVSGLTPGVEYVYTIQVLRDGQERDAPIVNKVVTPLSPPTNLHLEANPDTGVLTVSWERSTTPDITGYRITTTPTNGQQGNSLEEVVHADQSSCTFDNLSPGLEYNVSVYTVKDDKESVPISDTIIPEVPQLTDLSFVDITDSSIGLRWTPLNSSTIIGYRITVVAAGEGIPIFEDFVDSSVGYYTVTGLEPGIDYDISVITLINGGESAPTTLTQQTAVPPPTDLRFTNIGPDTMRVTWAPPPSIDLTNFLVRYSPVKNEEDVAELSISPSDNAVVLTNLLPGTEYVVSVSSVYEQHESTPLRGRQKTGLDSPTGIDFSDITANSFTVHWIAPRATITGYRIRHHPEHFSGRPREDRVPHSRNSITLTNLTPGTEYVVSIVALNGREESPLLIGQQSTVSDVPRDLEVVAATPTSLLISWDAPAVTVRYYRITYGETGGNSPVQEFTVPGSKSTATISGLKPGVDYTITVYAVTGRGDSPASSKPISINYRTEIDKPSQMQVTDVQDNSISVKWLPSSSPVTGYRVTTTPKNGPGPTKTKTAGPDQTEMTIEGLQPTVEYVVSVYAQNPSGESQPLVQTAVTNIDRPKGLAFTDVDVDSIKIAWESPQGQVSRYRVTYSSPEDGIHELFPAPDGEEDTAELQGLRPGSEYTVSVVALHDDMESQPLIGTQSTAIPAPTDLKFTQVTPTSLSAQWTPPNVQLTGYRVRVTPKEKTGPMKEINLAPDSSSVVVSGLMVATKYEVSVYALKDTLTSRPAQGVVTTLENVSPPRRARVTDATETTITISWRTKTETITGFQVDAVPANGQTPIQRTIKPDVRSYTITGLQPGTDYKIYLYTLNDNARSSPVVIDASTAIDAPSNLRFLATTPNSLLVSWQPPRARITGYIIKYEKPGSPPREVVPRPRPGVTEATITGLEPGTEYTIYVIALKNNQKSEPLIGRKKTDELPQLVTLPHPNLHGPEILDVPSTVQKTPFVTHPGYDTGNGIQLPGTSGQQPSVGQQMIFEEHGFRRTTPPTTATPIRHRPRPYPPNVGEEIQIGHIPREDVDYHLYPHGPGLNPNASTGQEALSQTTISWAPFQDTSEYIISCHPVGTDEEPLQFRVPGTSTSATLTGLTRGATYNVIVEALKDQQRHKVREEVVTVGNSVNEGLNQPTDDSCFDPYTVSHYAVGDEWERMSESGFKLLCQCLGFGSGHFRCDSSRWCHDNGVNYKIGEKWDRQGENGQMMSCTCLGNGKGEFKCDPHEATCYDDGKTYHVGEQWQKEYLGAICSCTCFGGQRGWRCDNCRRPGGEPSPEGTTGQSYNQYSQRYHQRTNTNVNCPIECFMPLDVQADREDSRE

The experiment concerns the target full-length human fibronectin (UniProt P02751). Nature of the experiment: ELISA. Particulars: parent: est. 0.29; read off a plot. (ELISA stands for enzyme-linked immunosorbent assay.)

“UpaB α-domain (α^UpaB), residues 38–500, from UPEC CFT073 N110A; K111A; N112A; D142A; N171A; D206A; D208A; N212A; N241A; N274A; N276A; N303A; N305A; K325A; D329A; D331A; D349A”: the response (Absorbance at 405 nm) amounted to 0.2. Take “UpaB α-domain (α^UpaB), residues 38–500, from UPEC CFT073 V151A; I221A; V249A; A252G; A253G; Y285A; Y312A; V339A”: the response (Absorbance at 405 nm) came to 0.26.
